# Assay results taken from publication PMC6379637 (2019).
# Biological target: A/H3N2 neuraminidase
# Format: biochemical, influenza A/H3N2 virus
smiles,measurement,value
"CC(=O)N[C@H]1[C@H]([C@H](O)[C@H](O)CO)OC(C(=O)O)=C[C@@H]1N=C(N)N [Zanamivir, zanamivir hydrate]",IC50,1 nM
